Pooled drug test results. Numbers come from NIAID ChemDB, via PubChem.

All rows: cytotoxicity tests; cell line: VERO; read-out: CC50

Rows are shuffled and stem from different studies. CCn: concentration that lowers growth or viability of the cells by n%.

compound,result
Cc1ccccc1-c1cc(CN2CCSCC2)c(C)n1-c1ccc(F)cc1,8 µg/mL
CCOc1ccc2c(N/N=C/c3ccc(OC)c4ccccc34)cc(C)nc2c1,3.6 µg/mL
CCCCCCCCC[n+]1ccc2cc(OC)c(OC)c3c2c1C=CN3,7.1 µM
C/C1=C\C=C\C2(C)C=C(CO[C@H]3O[C@H](CO)[C@H](O)[C@H](O)[C@H]3O)C(C)CC23OC([O-])C(C3=O)C(O)/C=C/C2(C)C=C(CO)C(C)CC23OC([O-])C(C3=O)C(O)/C(C)=C/C=C/C2C=C(CO[C@H]3O[C@H](CO)[C@H](O)[C@H](O)[C@H]3O)C(C)CC23OC([O-])C(C3=O)C(O)/C=C/C2(C)C=C(CO)C(C)CC23OC([O-])C(C3=O)C1O,>100 µg/mL
COc1cccc([C@H](c2cc3cc(Br)ccc3nc2OC)[C@@](O)(CCN(C)C)c2cnc(C)cc2C)c1F,>10 µg/mL
O.O=C(Cc1csc2nc(-c3ccccc3)cn12)NN1C(=O)CSC12CCCCC2,>10 µg/mL
C/C1=C\C=C\C2(C)C=C(CO)C(C)CC23OC([O-])C(C3=O)C(O)/C=C/C2(C)C=C(CO)C(C)CC23OC([O-])C(C3=O)C(O)/C(C)=C/C=C/C2C=C(CO)C(C)CC23OC([O-])C(C3=O)C(O)/C=C/C2(C)C=C(CO)C(C)CC23OC([O-])C(C3=O)C1O,>100 µg/mL
CCc1nc2ccc(Cl)cn2c1C(=O)NCc1ccc(N2CCS(=O)CC2)cc1,>32 µM
Cc1cc(/C=N/Nc2ccnc3ccc(C4CCCCC4)cc23)c(C)n1-c1ccccc1,12.6 µg/mL
COc1cccc([C@H](c2cc3cc(C#N)ccc3nc2OC)[C@@](O)(CCN(C)C)c2ncccc2C)c1F,>10 µg/mL
Cc1c(CN2CCN(C)CC2)cc(-c2ccccc2F)n1-c1cccc2ccccc12,4 µg/mL
CN(C)c1ccc(/C=N/N=C2\SC(CC(=O)O)C(=O)N2c2ccccc2)cc1,1000 µM
Cc1c(CN2CCSCC2)cc(-c2ccc(Cl)cc2)n1-c1ccccc1,4 µg/mL
CN1CC(OCc2ccc(OC(F)(F)F)cc2)Cn2nc([N+](=O)[O-])cc21,>128 µM
CC(=O)O[C@]1(C)/C=C/C[C@@H](C)/C=C/[C@@]2(C)CC[C@@H](C(C)(C)O)[C@@H]2[C@@H](O)C1,189 µM
C=C(C)/C=C/[C@]12C[C@H](C)[C@H]3CC[C@](C)(N)[C@@H](CC[C@H]1C)[C@@H]32,>128 µg/mL
Cc1nc2cc(Cl)ccn2c1C(=O)NCc1ccc2c(c1)CCO2,>32 µM
Cc1c(CN2CCSCC2)cc(-c2ccccc2)n1-c1cccc2ccccc12,4 µg/mL
Cc1ccn2c(C(=O)NCc3ccc(N4CCOCC4)c(F)c3)c(C)nc2c1,>32 µM
CC(C)(C)c1cc(/C=N/N=C2\SC(CC(=O)O)C(=O)N2c2ccccc2)cc(C(C)(C)C)c1O,1000 µM
Cc1c(CN2CCSCC2)cc(-c2ccccc2)n1-c1ccc(F)cc1,8 µg/mL
CCCS(=O)(=O)Oc1c(OC)cc2ccnc3c2c1N(C)C=C3,9 µM
Cc1c(CN2CCSCC2)cc(-c2ccc(F)cc2)n1-c1ccccc1,4 µg/mL
O=[N+]([O-])c1cn2c(n1)S(=O)(=O)CC(OCc1ccc(OCc3ccccc3)cc1)C2,>128 µM
COc1ccc2nc(C)cc(N/N=C/c3ccc(OC)c4ccccc34)c2c1,2.7 µg/mL
C[C@H]1C[C@H]2O[C@@H]2CC/C=C/C(=O)Cc2cc(O)cc(O)c2C(=O)O1,3 µM
COc1cccc([C@H](c2cc3cc(C#N)ccc3nc2OC)[C@@](O)(CCN(C)C)c2ccc(C)nc2)c1OC,>10 µg/mL
O=c1cc(-c2ccc(-c3ccccc3)cc2)oc2ccccc12,470 µg/mL
Cc1cn2c(C(=O)NCc3ccc(S(F)(F)(F)(F)F)cc3)c(C)nc2s1,>32 µM
CCOc1ccc2c(N/N=C/c3c(OC)ccc4ccccc34)cc(C)nc2c1,6.9 µg/mL
C/C1=C\C=C\C2(C)C=C(CO)C(C)CC23OC([O-])C(C3=O)C(O)/C=C/C2(C)C=C(C=O)C(C)CC23OC([O-])C(C3=O)C(O)/C(C)=C/C=C/C2C=C(CO)C(C)CC23OC([O-])C(C3=O)C(O)/C=C/C2(C)C=C(C=O)C(C)CC23OC([O-])C(C3=O)C1O,>100 µg/mL
COc1cccc([C@H](c2cc3cc(Br)ccc3nc2OC)[C@@](O)(CCN(C)C)c2cc(C)nc(C)c2)c1F,>10 µg/mL
COc1cc2ccnc3c2c(c1OCCCCCCCCCOc1c(OC)cc2ccnc4c2c1N(C)C=C4)N(C)C=C3,1.3 µM
Cc1cccc(-n2c(-c3ccc(F)cc3)cc(CN3CCN(C)CC3)c2C)c1,16 µg/mL
CCC1CCC2(CC1)SCC(=O)N2NC(=O)Cc1csc2nc(-c3ccccc3)cn12,>10 µg/mL
Cc1c(CN2CCSCC2)cc(-c2ccccc2F)n1-c1ccccc1F,32 µg/mL
COc1cc2c(cc1OC)[C@@H]1C(N)CSCON1CC2,40 µg/mL
CC(Sc1ncnc2c1cnn2CCCCO)C(N)=O,>400 µg/mL
O=[N+]([O-])c1cn2c(n1)S(=O)CC(OCc1ccc(OCc3ccccc3)cc1)C2,63 µM
CCCCCCCCCCCCN1C=Cc2cc(OC)c(OC)c3c2c1cc[n+]3CCCCCCCCCCCC,<1 µM
Cc1c(CN2CCN(C)CC2)cc(-c2ccc(Cl)cc2)n1-c1ccccc1,4 µg/mL
O=C(O)CC1S/C(=N\N=C\c2ccc(F)cc2)N(c2ccccc2)C1=O,2000 µM
Nc1nc(=O)n([C@@H]2O[C@H](CO)[C@@H](O)[C@@H]2F)cc1I,100 µM
C[C@H]1C[C@H]2O[C@@H]2CCCCC(=O)Cc2c(Cl)c(O)cc(O)c2C(=O)O1,18 µM
COc1nc2ccc(Br)cc2cc1[C@@H](c1cccc(C)c1)[C@@](O)(CCN(C)C)c1cc(C)nc(C)c1,>10 µg/mL
COc1cc2ccnc3c2c(c1O)N(C)C=C3,2.1 µM
NC1CSCCN2CCc3c([nH]c4ccccc34)[C@H]12,≥100 µg/mL
CCC(Sc1ncnc2c1cnn2COCC(O)CO)C(N)=O,>400 µg/mL
CC[C@H](C)[C@H](N)[C@H](O)n1nc(C)c2c(Cl)c3cc(OC)ccc3nc21,>100 µg/mL
CC(C)(C)C(O)c1c(-c2ccccc2)c(-c2ccccc2)n2ccc(C#N)cc12,5.99 µg/mL
Cc1ccn2c(C(=O)NCc3ccc(N4CCC(N)CC4)c(F)c3)c(C)nc2c1,>32 µM
O=[N+]([O-])c1cc2n(n1)CC(OCc1ccc(OCc3ccccc3)cc1)CO2,82 µM
COc1cccc([C@H](c2cc3cc(Br)ccc3nc2OC)[C@@](O)(CCN(C)C)c2cc(C)nc(C)c2)c1OC,>10 µg/mL
Cc1ccc(/C=N/N=C2\SC(CC(=O)O)C(=O)N2c2ccccc2)cc1,1000 µM
C[C@H]1C[C@H](O)C(Cl)/C=C\C=C\C(=O)Cc2c(Cl)c(O)cc(O)c2C(=O)O1,750 µM
NC(=O)NO,1000 µM
CCC1CCC2(CC1)SC(C)C(=O)N2NC(=O)Cc1csc2nc(-c3ccccc3)cn12.O.O,6.9 µg/mL
Nc1nc2c(ncn2[C@H]2S[C@@H](CO)C=C2F)c(=O)[nH]1,>66.4 µM
C[C@H]1C/C=C/C(O)C/C=C/C(=O)Cc2cccc(O)c2C(=O)O1,20 µM
CCCCCCCCCCCCN1C=Cc2nccc3cc(OC)c(OC)c1c23,<1 µM
CCC(Sc1ncnc2c1cnn2COCCO)C(N)=O,>400 µg/mL
N#Cc1ccn2c(-c3ccccc3)c(-c3ccccc3)c(C(O)c3ccccc3)c2c1,>10 µg/mL
COc1cc2c3c(ccnc3c1OC)NC=C2,23.1 µM
CON1CCc2c([nH]c3ccccc23)[C@@H]1[C@@H](N)CSC,≥100 µg/mL

8 of the rows above, restated:

compound,result
COc1cc2ccnc3c2c(c1OCCCCCCCCCOc1c(OC)cc2ccnc4c2c1N(C)C=C4)N(C)C=C3,1.3 µM
CC(=O)O[C@]1(C)/C=C/C[C@@H](C)/C=C/[C@@]2(C)CC[C@@H](C(C)(C)O)[C@@H]2[C@@H](O)C1,189 µM
COc1cc2c3c(ccnc3c1OC)NC=C2,23.1 µM
C=C(C)/C=C/[C@]12C[C@H](C)[C@H]3CC[C@](C)(N)[C@@H](CC[C@H]1C)[C@@H]32,>128 µg/mL
Cc1ccccc1-c1cc(CN2CCSCC2)c(C)n1-c1ccc(F)cc1,8 µg/mL
O.O=C(Cc1csc2nc(-c3ccccc3)cn12)NN1C(=O)CSC12CCCCC2,>10 µg/mL
C[C@H]1C[C@H]2O[C@@H]2CC/C=C/C(=O)Cc2cc(O)cc(O)c2C(=O)O1,3 µM
CCOc1ccc2c(N/N=C/c3ccc(OC)c4ccccc34)cc(C)nc2c1,3.6 µg/mL